The text below walks through data of patent publication US20240059757A1 (VIR BIOTECHNOLOGY, published 2024).

Assay [1] has as its target SARS-CoV Spike protein (SARS-CoV, UniProt P59594 14-1255). Description: ELISA, panel 'Spike SARS1' (SARS-CoV Spike protein). (In general: An ELISA detects its analyte on a solid surface through an enzyme-linked reagent.)
The target in assay [2] is WIV1 spike protein RBD (WIV1). Description: BLI. Background: In BLI a coated tip is dipped into the sample, and binding shifts an interference pattern.
Assay [3] concerns the target ZC45 spike protein RBD (ZC45). Description: BLI.
Assay [4] addresses RaTG13 spike protein RBD (RaTG13). Description: ELISA.
The target in assay [5] is PANG/GD spike protein RBD (PANG/GD). Description: ELISA.
For assay [6], the target named is PANG/GX spike protein RBD (PANG/GX). Description: ELISA.
The target in assay [7] is ZC45 spike protein RBD (ZC45). Description: ELISA.
In assay [8] the target is BtKY72 spike protein RBD (BtKY72). Description: ELISA.
Assay [9] addresses PANG/GD spike protein (PANG/GD). Description: cell-based or functional assay.
The target of assay [10] is PANG/GX spike protein (PANG/GX). Description: cell-based or functional assay.

B1: S2X227 (antibody, V domains shown)
VH: EVQLVQSGAEVKKPGASVKVSCKASGYTFTSYYMHWVRQAPGQGLEWMGIINPGGVSTTYAHYAQKFQGRVTMTRDTSTSTVYMELSSLRSEDTAVYYCARSIAVFWGDAFDIWGQGTMVTVSS
VL: DIQMTQSPDSLAVSLGERATINCKSSQSVLYSSNNKNYLAWYQQKPGQPPKLLIYWASTRESGVPDRFSGSGSGTDFTLTISSLQAEDVAVYYCQQYSSSPLTFGGGTKVEIK
As to B1, in assay [1], the binding result is listed as “no binding (tested: about 5000 ng/ml)”.

B2: S2D22 (antibody, V domains shown)
VH: EVHLVESGGGLVQPGGSLKLSCAASGFTFSGSAMHWVRQASGKGLEWVGRIRTKANTYATAYAASVKGRFTISRDDSKNTAYLQMNSLKTEDTAVYYCTRPAPYDFLSDYYTGEQLDYWGQGTLVTVSS
VL: QSVLTQPPSVSGAPGQRVTISCTGSSSNIGAGYDVHWYQQLPGAAPKLLIYGNSNRPSGVPDRFSGSKSGTSASLAITGLQAEDEADYYCQSYDSSLSGPEVFGTGTKVTVL
As to B2, the dissociation constant Kd (in general, the constant that tells how readily two partners part at equilibrium) is 40 nM in [2] and 41.4 nM in assay [3]. Besides, the half-maximal effective concentration (EC50) (usually the concentration at which the effect is half-maximal) in assay [4] was 0.0451 µg/mL; in [5], 0.0491 µg/mL; in [6], 0.0432 µg/mL; in [7], 0.0485 µg/mL; in [8], 0.0529 µg/mL. For the same molecule, the “neutralization IC50” value was determined as 0.0955 µg/mL in assay [9] and 0.284 µg/mL in assay [10].
